Compound potency records, mixed from different reports. Data source: NIAID ChemDB in PubChem.

Common to all: tests in culture; organism: Mycobacterium avium complex

MIC50, MIC90 and the like: level of inhibition, or share of isolates inhibited.

compound,strain,cells,method,endpoint,tested at,result
CC[C@H]1OC(=O)[C@H](C)[C@@H](O[C@H]2C[C@@](C)(OC)[C@@H](O)[C@H](C)O2)[C@H](C)[C@@H](O[C@@H]2O[C@H](C)C[C@H](N(C)C)[C@H]2O)[C@](C)(OC)C[C@@H](C)C(=O)[C@H](C)[C@@H](O)[C@]1(C)O,N-444,,,MBC,,>64 µg/mL
CC1(C)N=C(N)N=C(N)N1OCCCOc1cc(Cl)c(Cl)cc1Cl,ENMOO3,,,MIC,,4 µg/mL
NC(=O)c1cnccn1,33 strains (pyrazinamidase-positive),,,EC50,,>100 µg/mL
CC[C@H]1OC(=O)C[C@@H](O)[C@H](C)[C@@H](O[C@@H]2O[C@H](C)[C@H](O[C@H]3C[C@@](C)(O)[C@@H](O)[C@H](C)O3)[C@H](N(C)C)[C@H]2O)[C@@H](CC=O)C[C@@H](C)C(=O)/C=C/C(C)=C/[C@@H]1CO,28 strains,,,MIC90,,32 µg/mL
C[C@@H]1CN(c2c(F)c(N)c3c(=O)c(C(=O)O)cn(C4CC4)c3c2F)C[C@H](C)N1,Isolate 90-0738,,,MBC,,5 µg/mL
Cc1c(F)c(N2CCNC(C)C2)cc2c1c(=O)c(C(=O)O)cn2C1CC1,,,,MIC50,,3.13 µg/mL
CC[C@H]1OC(=O)[C@H](C)[C@@H](O[C@H]2C[C@@](C)(OC)[C@@H](O)[C@H](C)O2)[C@H](C)[C@@H](O[C@@H]2O[C@H](C)C[C@H](N(C)C)[C@H]2O)[C@](C)(OC)C[C@@H](C)C(=O)[C@H](C)[C@@H](O)[C@]1(C)O,20 strains,,,MIC90,,4 µg/mL
CC[C@H]1OC(=O)[C@H](C)[C@@H](O[C@H]2C[C@@](C)(OC)[C@@H](O)[C@H](C)O2)[C@H](C)[C@@H](O[C@@H]2O[C@H](C)C[C@H](N(C)C)[C@H]2O)[C@](C)(OC)C[C@@H](C)C(=O)[C@H](C)[C@@H](O)[C@]1(C)O,N-444,,,MBC,,>64 µg/mL
CC(=O)NC[C@H]1CN(c2ccc(N3CCN(Cc4ccc([N+](=O)[O-])s4)CC3)c(F)c2)C(=O)O1,31 isolates,,,Geometric mean MIC,,0.217 µg/mL
CC[C@H]1OC(=O)[C@H](C)[C@@H](O[C@H]2C[C@@](C)(OC)[C@@H](O)[C@H](C)O2)[C@H](C)[C@@H](O[C@@H]2O[C@H](C)C[C@H](N(C)C)[C@H]2O)[C@](C)(O)C[C@@H](C)CN(C)[C@H](C)[C@@H](O)[C@]1(C)O,20 isolates,,,Median MIC,,8 µg/mL
CC[C@H]1OC(=O)[C@H](C)[C@@H](O[C@H]2C[C@@](C)(OC)[C@@H](O)[C@H](C)O2)[C@H](C)[C@@H](O[C@@H]2O[C@H](C)C[C@H](N(C)C)[C@H]2O)[C@](C)(O)C[C@@H](C)/C(=N\OCOCCOC)[C@H](C)[C@@H](O)[C@]1(C)O,28 strains,,,MIC90,,16 µg/mL
CC1CN(c2cc3c(cc2F)c(=O)c(C(=O)O)cn3-c2ccc(F)cc2F)CCN1,25 isolates,,,MBC90,,>8 µg/mL
CC[C@H]1OC(=O)[C@H](C)[C@@H](O[C@H]2C[C@@](C)(OC)[C@@H](OC(C)=O)[C@H](C)O2)[C@H](C)[C@@H](O[C@@H]2O[C@H](C)C[C@H](N(C)C)[C@H]2OC(=O)NNCCCCc2ccccc2)C(C)(O)C[C@@H](C)/C(=N\OCCCC2CCCCC2)[C@H](C)[C@@H](O)[C@]1(C)O,20092 (clarithromycin-resistant),,,MIC,,3.13 µg/mL
C[C@@H]1CN(c2c(F)c(N)c3c(=O)c(C(=O)O)cn(C4CC4)c3c2F)C[C@H](C)N1,18 strains,,,MIC50,,1.56 µg/mL
NCC[C@H](O)C(=O)N[C@@H]1C[C@H](N)[C@@H](O[C@H]2O[C@H](CN)[C@@H](O)[C@H](O)[C@H]2O)[C@H](O)[C@H]1O[C@H]1O[C@H](CO)[C@@H](O)[C@H](N)[C@H]1O,25 isolates,,,MBC90,,64 µg/mL
CC[C@H]1OC(=O)[C@H](C)[C@@H](O[C@H]2C[C@@](C)(OC)[C@@H](O)[C@H](C)O2)[C@H](C)[C@@H](O[C@@H]2O[C@H](C)C[C@H](N(C)C)[C@H]2O)[C@](C)(O)C[C@@H](C)C(NCCOC)[C@H](C)[C@@H](O)[C@]1(C)O,28 strains,,,MIC90,,≥64 µg/mL
N[C@@H]1CN(c2c(F)cc3c(=O)c(C(=O)O)cn([C@@H]4C[C@@H]4F)c3c2Cl)CC12CC2,100,Macrophages,,inhibition,10 µg/mL,100%
CC1COc2c(N3CCN(C)CC3)c(F)cc3c(=O)c(C(=O)O)cn1c23,25 isolates,,,MBC90,,>8 µg/mL
CCc1cc(C(N)=S)ccn1,97 strains,,agar,EC50,,>10 µg/mL
CC(C)N=c1cc2n(-c3ccc(Cl)cc3)c3ccccc3nc-2cc1Nc1ccc(Cl)cc1,1625,,,MBC,,2 µg/mL
CC[C@H]1OC(=O)[C@H](C)[C@@H](O[C@H]2C[C@@](C)(OC)[C@@H](O)[C@H](C)O2)[C@H](C)[C@@H](O[C@@H]2O[C@H](C)C[C@H](N(C)C)[C@H]2O)[C@](C)(O)C[C@@H](C)C(=O)[C@H](C)[C@@H](O)[C@]1(C)O,25 isolates,,,MIC90,,>8 µg/mL
CO[C@H]1/C=C/O[C@@]2(C)Oc3c(C)c(O)c4c(O)c(c5c(c4c3C2=O)NC2(CCN(CC(C)C)CC2)N=5)=NC(=O)/C(C)=C\C=C\[C@H](C)[C@H](O)[C@@H](C)[C@@H](O)[C@@H](C)[C@H](OC(C)=O)[C@@H]1C,1408-2,,,MBC,,16 µg/mL
CO[C@H]1/C=C/O[C@@]2(C)Oc3c(C)c(O)c4c(O)c(c5c(c4c3C2=O)NC2(CCN(CC(C)C)CC2)N=5)=NC(=O)/C(C)=C\C=C\[C@H](C)[C@H](O)[C@@H](C)[C@@H](O)[C@@H](C)[C@H](OC(C)=O)[C@@H]1C,N-319 (HIV-),,,MIC,,0.5 µg/mL
CN1CCCC1CCN=c1cc2n(-c3ccc(Cl)cc3)c3ccccc3nc-2cc1Nc1ccccc1,10 strains (HIV+),,,MIC90,,2 µg/mL
OC[C@H]1OC(O)C[C@@H](O)[C@@H]1O,Serovar 4,,,inhibition,1000 µg/mL,5%
C[C@H]1C[C@H](N)CN1c1cc2c(cc1F)c(=O)c(C(=O)O)cn2-c1ccc(F)cc1F,25 isolates,,,MBC90,,>8 µg/mL
CC[C@H]1OC(=O)[C@H](C)[C@@H](OC(=O)CCCc2ccccc2)[C@H](C)[C@@H](O[C@@H]2O[C@H](C)C[C@H](N(C)C)[C@H]2O)C(C)(O)C[C@@H](C)/C(=N\OCCCOc2ccccc2)[C@H](C)[C@@H](O)[C@]1(C)O,20092 (clarithromycin-resistant),,,MIC,,12.5 µg/mL
CC1(C)N=C(N)N=C(N)N1OCCCOc1cc(Cl)c(Cl)cc1Cl,9141,,,MIC,,2 µg/mL
NNC(=O)c1ccncc1,11016,,,MIC,,1.26–1.6 µg/mL
CC1COc2c(N3CCN(C)CC3)c(F)cc3c(=O)c(C(=O)O)cn1c23,18 strains,,,MIC90,,50 µg/mL
CC[C@H]1OC(=O)[C@H](C)[C@@H](OC2C[C@@](C)(OC)[C@@H](OC(=O)Cc3ccccc3)[C@H](C)O2)[C@H](C)[C@@H](O[C@@H]2O[C@H](C)C[C@H](N(C)C)[C@H]2O)C(C)(O)C[C@@H](C)/C(=N\OCCCOc2ccccc2)[C@H](C)[C@@H](O)[C@]1(C)O,20039 (clarithromycin-susceptible),,,MIC,,0.78 µg/mL
NC[C@H]1O[C@H](O[C@H]2[C@H](O)[C@@H](O[C@H]3O[C@H](CO)[C@@H](O)[C@H](N)[C@H]3O)[C@H](N)C[C@@H]2N)[C@H](N)C[C@@H]1O,25 isolates,,,MBC90,,>64 µg/mL
CCc1nc(N)nc(N)c1-c1ccc(Cl)cc1,DW20,,,MIC,,32 µg/mL
CO[C@H]1/C=C/O[C@@]2(C)Oc3c(C)c(O)c4c(O)c(c(N5CCN(Cc6c(C)cc(C)cc6C)CC5)c(O)c4c3C2=O)NC(=O)/C(C)=C\C=C\[C@H](C)[C@H](O)[C@@H](C)[C@@H](O)[C@@H](C)[C@H](OC(C)=O)[C@@H]1C,67 strains (HIV+),,,Mean MIC,,0.33 µg/mL
CCO/N=C1\[C@H](C)CC(C)(O)[C@H](O[C@@H]2O[C@H](C)C[C@H](N(C)C)[C@H]2O)[C@@H](C)[C@H](O[C@H]2C[C@@](C)(OC)[C@@H](OC(C)=O)[C@H](C)O2)[C@@H](C)C(=O)O[C@H](CC)[C@@](C)(O)[C@H](O)[C@H]1C,20039 (clarithromycin-susceptible),,,MIC,,>50 µg/mL
NC1CCN(c2c(F)cc3c(=O)c(C(=O)O)cn(C4CC4)c3c2Cl)C1,25 isolates,,,MBC90,,>8 µg/mL
CCCCCCCCCCCCCCNNC(=O)O[C@H]1[C@H](O[C@@H]2[C@@H](C)[C@H](O[C@H]3C[C@@](C)(OC)[C@@H](OC(C)=O)[C@H](C)O3)[C@@H](C)C(=O)O[C@H](CC)[C@@](C)(O)[C@H](O)[C@@H](C)/C(=N/OCCCC3CCCCC3)[C@H](C)CC2(C)O)O[C@H](C)C[C@@H]1N(C)C,20096 (clarithromycin-resistant),,,MIC,,>50 µg/mL
CC[C@H]1OC(=O)[C@H](C)[C@@H](O[C@H]2C[C@@](C)(OC)[C@@H](O)[C@H](C)O2)[C@H](C)[C@@H](O[C@@H]2O[C@H](C)C[C@H](N(C)C)[C@H]2O)[C@](C)(OC)C[C@@H](C)C(=O)[C@H](C)[C@@H](O)[C@]1(C)O,28 strains,,,MIC90,,4 µg/mL

Repeating the final 2 entries:

| compound | strain | cells | method | endpoint | tested at | result |
|---|---|---|---|---|---|---|
| CCCCCCCCCCCCCCNNC(=O)O[C@H]1[C@H](O[C@@H]2[C@@H](C)[C@H](O[C@H]3C[C@@](C)(OC)[C@@H](OC(C)=O)[C@H](C)O3)[C@@H](C)C(=O)O[C@H](CC)[C@@](C)(O)[C@H](O)[C@@H](C)/C(=N/OCCCC3CCCCC3)[C@H](C)CC2(C)O)O[C@H](C)C[C@@H]1N(C)C | 20096 (clarithromycin-resistant) |  |  | MIC |  | >50 µg/mL |
| CC[C@H]1OC(=O)[C@H](C)[C@@H](O[C@H]2C[C@@](C)(OC)[C@@H](O)[C@H](C)O2)[C@H](C)[C@@H](O[C@@H]2O[C@H](C)C[C@H](N(C)C)[C@H]2O)[C@](C)(OC)C[C@@H](C)C(=O)[C@H](C)[C@@H](O)[C@]1(C)O | 28 strains |  |  | MIC90 |  | 4 µg/mL |

Two numbers with a dash give a range or band. Inhibition is in % at the dose shown (toxicity tests: loss of growth or viability). Conditions beyond the fields shown may differ between rows. An empty or dashed field is not shown. ECn is the concentration giving n% inhibition of infection, replication or growth.